Laboratory results: paper PMC6541436, “Misfolded GPI-anchored proteins are escorted through the secretory pathway by ER-derived factors” (2019)

Molecular target: GFP-tagged PrP* (C179A mutant of hamster PrP) (hamster) (UniProt Q60506)
Assay: co-IP

Which percent of cellular molecules engaged with PrP* on the surface does the source give for “Calnexin (from UniProt P27824 21-592) (natural protein)” here?
Its percent of cellular molecules engaged with PrP* on the surface is 0.5%.

And the percent of total CNX recovered with surface GFP-PrP*?
Its percent of total CNX recovered with surface GFP-PrP* is 0.1%.
